How the values were obtained:
Experiment in all cases: Two-electrode voltage clamp, neuronal nAChR in Xenopus laevis oocytes
[1] = molecular target: human neuronal nAChR α3β2 (Homo sapiens, UniProt P17787+P32297); settings: at >100μM, TEVC
[2] = molecular target: human neuronal nAChR α4β2 (Homo sapiens, UniProt P17787+P43681); settings: at >100μM, TEVC, ACh 200 µM
[3] = molecular target: human neuronal nAChR α4β4 (Homo sapiens, UniProt P30926+P43681); settings: at >100μM, TEVC, ACh 200 µM
human neuronal nAChR α7 = human neuronal nAChR α7 (Homo sapiens, UniProt P36544); settings: at >100μM, TEVC, ACh 100 µM
[4] = molecular target: human neuronal nAChR α9α10 (Homo sapiens, UniProt Q9GZZ6+Q9UGM1); settings: at >100μM, TEVC, ACh 500 µM

By UniProt entry, the sequences of proteins in these tests, tags left out. Residues count along the entry.
UniProt P17787, 26-502 limits assumed: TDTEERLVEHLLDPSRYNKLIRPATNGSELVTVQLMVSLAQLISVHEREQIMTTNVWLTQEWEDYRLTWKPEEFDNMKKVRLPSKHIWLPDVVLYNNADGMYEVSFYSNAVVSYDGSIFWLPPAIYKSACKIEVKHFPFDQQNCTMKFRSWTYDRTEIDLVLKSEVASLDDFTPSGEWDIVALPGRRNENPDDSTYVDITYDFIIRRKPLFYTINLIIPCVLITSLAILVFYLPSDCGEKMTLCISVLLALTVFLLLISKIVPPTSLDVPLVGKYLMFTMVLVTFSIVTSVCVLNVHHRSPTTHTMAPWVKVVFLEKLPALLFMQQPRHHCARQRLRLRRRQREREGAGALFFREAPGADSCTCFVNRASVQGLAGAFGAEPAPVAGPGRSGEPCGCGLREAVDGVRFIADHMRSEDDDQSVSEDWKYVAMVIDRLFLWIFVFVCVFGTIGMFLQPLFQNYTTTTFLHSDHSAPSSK
UniProt P32297, 32-505 limits assumed: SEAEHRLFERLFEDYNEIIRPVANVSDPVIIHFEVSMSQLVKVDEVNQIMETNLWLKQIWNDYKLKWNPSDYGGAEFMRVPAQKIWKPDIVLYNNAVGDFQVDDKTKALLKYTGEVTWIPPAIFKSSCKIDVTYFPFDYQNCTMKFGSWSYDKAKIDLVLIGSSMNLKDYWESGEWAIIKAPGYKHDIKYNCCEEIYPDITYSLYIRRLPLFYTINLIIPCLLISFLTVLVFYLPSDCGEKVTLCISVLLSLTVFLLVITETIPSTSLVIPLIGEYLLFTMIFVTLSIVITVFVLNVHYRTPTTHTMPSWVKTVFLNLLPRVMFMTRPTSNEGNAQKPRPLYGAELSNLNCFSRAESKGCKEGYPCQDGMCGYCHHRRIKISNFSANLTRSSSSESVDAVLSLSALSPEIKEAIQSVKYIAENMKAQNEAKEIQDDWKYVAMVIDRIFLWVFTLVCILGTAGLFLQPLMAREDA
UniProt P43681, 29-627 limits assumed: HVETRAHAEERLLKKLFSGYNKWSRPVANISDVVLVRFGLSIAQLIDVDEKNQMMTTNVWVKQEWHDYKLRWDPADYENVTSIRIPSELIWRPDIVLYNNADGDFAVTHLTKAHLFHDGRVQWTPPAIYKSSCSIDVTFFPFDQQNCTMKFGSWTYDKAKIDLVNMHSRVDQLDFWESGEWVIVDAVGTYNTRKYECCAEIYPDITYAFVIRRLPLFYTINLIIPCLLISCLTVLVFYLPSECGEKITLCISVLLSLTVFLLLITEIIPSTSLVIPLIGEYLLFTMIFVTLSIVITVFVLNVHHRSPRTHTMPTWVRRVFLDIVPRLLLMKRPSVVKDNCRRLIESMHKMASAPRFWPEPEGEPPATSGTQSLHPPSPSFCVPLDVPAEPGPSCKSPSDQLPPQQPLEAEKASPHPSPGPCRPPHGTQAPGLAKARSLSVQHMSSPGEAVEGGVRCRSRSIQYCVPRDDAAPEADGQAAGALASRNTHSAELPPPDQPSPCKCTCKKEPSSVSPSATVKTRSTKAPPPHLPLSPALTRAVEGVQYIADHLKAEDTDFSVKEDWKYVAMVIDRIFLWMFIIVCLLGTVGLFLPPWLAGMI
UniProt P30926, 22-498 limits assumed: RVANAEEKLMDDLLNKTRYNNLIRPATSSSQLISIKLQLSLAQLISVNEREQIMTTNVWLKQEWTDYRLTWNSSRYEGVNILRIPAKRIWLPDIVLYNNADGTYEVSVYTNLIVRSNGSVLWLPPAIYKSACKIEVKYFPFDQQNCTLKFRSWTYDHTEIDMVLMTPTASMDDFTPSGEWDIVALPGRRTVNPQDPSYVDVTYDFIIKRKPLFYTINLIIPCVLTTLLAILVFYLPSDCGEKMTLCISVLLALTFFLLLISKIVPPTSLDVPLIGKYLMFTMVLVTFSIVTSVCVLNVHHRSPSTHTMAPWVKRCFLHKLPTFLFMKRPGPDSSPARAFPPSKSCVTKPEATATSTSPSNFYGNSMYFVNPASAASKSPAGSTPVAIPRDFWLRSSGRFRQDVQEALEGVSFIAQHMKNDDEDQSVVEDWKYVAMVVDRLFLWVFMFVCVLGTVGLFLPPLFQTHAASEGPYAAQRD
UniProt P36544, 23-502 limits assumed: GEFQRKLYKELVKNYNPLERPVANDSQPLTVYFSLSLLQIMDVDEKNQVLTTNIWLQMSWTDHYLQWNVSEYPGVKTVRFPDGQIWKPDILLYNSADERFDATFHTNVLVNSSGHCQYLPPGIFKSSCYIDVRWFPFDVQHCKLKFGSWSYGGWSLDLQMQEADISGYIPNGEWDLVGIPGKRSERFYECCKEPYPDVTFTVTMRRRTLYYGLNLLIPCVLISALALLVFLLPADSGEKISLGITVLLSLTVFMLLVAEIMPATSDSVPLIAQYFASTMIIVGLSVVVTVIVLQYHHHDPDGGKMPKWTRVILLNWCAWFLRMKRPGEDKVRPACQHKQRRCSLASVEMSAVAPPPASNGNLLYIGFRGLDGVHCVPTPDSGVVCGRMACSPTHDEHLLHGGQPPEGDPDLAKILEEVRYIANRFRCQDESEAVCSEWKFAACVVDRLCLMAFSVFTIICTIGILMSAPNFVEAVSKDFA
UniProt Q9GZZ6, 25-450 limits assumed: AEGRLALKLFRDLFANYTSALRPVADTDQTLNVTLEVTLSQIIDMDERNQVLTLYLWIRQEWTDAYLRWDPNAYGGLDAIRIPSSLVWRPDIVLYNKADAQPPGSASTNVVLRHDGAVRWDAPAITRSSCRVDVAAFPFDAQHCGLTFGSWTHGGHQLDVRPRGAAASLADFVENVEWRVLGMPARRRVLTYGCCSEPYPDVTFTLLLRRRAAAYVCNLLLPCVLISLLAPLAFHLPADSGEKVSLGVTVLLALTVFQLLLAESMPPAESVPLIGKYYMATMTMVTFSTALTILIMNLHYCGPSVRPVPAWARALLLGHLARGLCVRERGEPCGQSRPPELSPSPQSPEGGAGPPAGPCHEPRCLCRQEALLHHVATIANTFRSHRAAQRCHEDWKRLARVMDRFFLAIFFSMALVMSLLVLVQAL
UniProt Q9UGM1, 26-479 limits assumed: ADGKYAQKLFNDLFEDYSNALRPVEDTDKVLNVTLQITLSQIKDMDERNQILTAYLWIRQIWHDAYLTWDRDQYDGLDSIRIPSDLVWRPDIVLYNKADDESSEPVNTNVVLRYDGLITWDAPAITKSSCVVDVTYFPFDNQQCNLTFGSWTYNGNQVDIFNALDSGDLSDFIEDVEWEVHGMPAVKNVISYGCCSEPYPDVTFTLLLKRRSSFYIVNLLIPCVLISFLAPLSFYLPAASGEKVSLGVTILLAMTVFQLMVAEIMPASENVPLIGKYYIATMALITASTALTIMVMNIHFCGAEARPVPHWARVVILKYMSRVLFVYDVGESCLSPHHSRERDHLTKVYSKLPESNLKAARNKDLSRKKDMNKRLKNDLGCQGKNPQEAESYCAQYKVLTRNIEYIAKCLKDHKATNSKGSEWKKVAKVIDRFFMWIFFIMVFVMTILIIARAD

C[C@@H]1NC(=O)[C@@H]2CCCN2C(=O)[C@H](Cc2c[nH]cn2)NC(=O)[C@@H]2CSSC[C@@H](C(N)=O)NC(=O)[C@H](CO)NC(=O)[C@H](Cc3ccccc3)NC(=O)[C@H](CC(N)=O)NC(=O)[C@@H]3CCCN3C(=O)CNC(=O)[C@H](CSSC[C@H](NC(=O)[C@@H](N)Cc3ccc(O)cc3)C(=O)N2)NC1=O
no inhibition: inhibition of α3β2 [1] | inhibition of α4β2 [2] | inhibition of α4β4 [3] | inhibition of α7 (human neuronal nAChR α7) | inhibition of α9α10 [4]

Reference: article PMC9602734, “Research into the Bioengineering of a Novel α-Conotoxin from the Milked Venom of Conus obscurus” (2022)
